Results of unrelated studies side by side (data: NIAID ChemDB).

Common to all: tests in culture; agent: HIV-1; read by: cytopathic effect / MTT; read-out: EC50

Lines come from different laboratories, so protocols vary. ECn: concentration that inhibits the pathogen or its effect by n%. Blank or dashed fields: not listed here.

compound | mutations | cell line | strain or isolate | value
Cc1cn([C@H]2C[C@H](N=[N+]=[N-])[C@@H](CO)O2)c(=O)[nH]c1=O |  | MT-4 | WT | 0.07 µM
CCOCn1c(Sc2cc(C)cc(C)c2)c(CC)c(=O)[nH]c1=O |  | MOLT-4 | IIIB | 0.0034 µM
COCOc1cc(O)c(C(=O)/C=C/c2ccc(OCOC)c(OCOC)c2)c(OCOC)c1 |  | MT-4 | IIIB | >20 µg/mL
Nc1ncnc2c1ncn2CCOCP(=O)(O)O |  | MT-4 | IIIB | >4 µg/mL
Cc1cn([C@H]2C=C[C@@H](CO)O2)c(=O)[nH]c1=O | RT-K103R V179D P225H | MT-4 | EFV-resistant (RT K103R V179D P225H) | 0.4 µM
CC1=C[C@]23C(=O)[C@@H](C=C(COC(=O)C(C)(C)C)[C@@H](O)[C@]2(O)[C@H]1O)[C@H]1[C@@H](C[C@H]3C)C1(C)C |  | MT-4 |  | 0.013 µg/mL
CC(C)(C)NC(=O)[C@@H]1CN(Cc2cccnc2)CCN1C[C@@H](O)C[C@@H](Cc1ccccc1)C(=O)N[C@H]1c2ccccc2C[C@H]1O |  | CEM + CEM-SS | LAI | ~0.01 µM
CCOC(=O)c1cn(C)cc1S(=O)(=O)c1cc(Cl)ccc1N |  | MT-4 | IIIB | 1.3 µM
CC1(C)C2=CC(=O)C(O)(c3ccccc3)C(=O)N2c2ccc(Cl)cc21 |  | MT-4 | RF | 0.58 µM
Nc1nc(Nc2ccccc2)c2ncn(CCOCP(=O)(O)O)c2n1 |  | CEM | IIIB | 63.3 µg/mL
CCOC(=O)c1oc2cc(O)cc(O)c2c(=O)c1Oc1ccc(OCc2ccccc2)cc1OCc1ccccc1 |  | MT-4 | IIIB | >25 µg/mL
CN(C)C(=O)Oc1nsnc1-c1ccccc1 |  | MT-4 | IIIB | 29 µM
CC(C)(C)NC(=O)[C@@H]1CC2CCCCC2CN1C[C@@H](OC(=O)CC(=O)O[C@H]1[C@@H](C2COC(C)(C)O2)OC2OC(C)(C)O[C@H]21)[C@H](Cc1ccccc1)NC(=O)[C@H](CC(N)=O)NC(=O)c1ccc2ccccc2n1 |  | MT-4 | IIIB | 0.041 µM
Fc1c(F)c(CN2CCCNCCNCCCNCC2)c(F)c(F)c1CN1CCCNCCNCCCNCC1 |  | MT-4 | NL4-3 | 0.09 µg/mL
CCCCCCCCCCCC(=O)O[C@@]12C[C@@H](C)[C@]34C=C(C)[C@H](O)[C@@]3(O)[C@H](O)C(COC(=O)c3ccccc3)=C[C@H](C4=O)[C@@H]1C2(C)C |  | MT-4 |  | 0.001 µg/mL
CC(C)=CCn1cc2c(c1)S(=O)(=O)c1cc(Cl)ccc1NC2=S | RT-K103N | C8166 | Clinical isolate | ≥30 µM
COC(=O)c1cc(CN2CCCNCCNCCCNCC2)ccc1CN1CCCNCCNCCCNCC1 | AMD3100-resistant | MT-4 | NL4-3 | >25 µg/mL
CC(C)=CCc1c(O[C@@H]2C[C@H](CO)[C@@H](O)[C@H](O)[C@H]2O)cc(O)c2c(=O)c(O[C@@H]3O[C@@H](C)[C@H](O)[C@@H](O)[C@H]3O[C@@H]3O[C@H](CO)[C@@H](O)[C@H](O)[C@H]3O)c(-c3ccc(O)cc3)oc12 |  | MT-4 | IIIB | >500 µg/mL
Cc1c(O)cccc1C(=O)N[C@@H](CSc1ccccc1)[C@@H](CN1C[C@H]2CCCC[C@H]2C[C@H]1C(=O)NC(C)(C)C)OC(=O)CCCCNC(=O)O[C@H]1[C@@H](C2COC(C)(C)O2)OC2OC(C)(C)O[C@H]21.O=C(O)C(F)(F)F.O=C(O)C(F)(F)F |  | CEM + CEM-SS | LAI | 8.2 µM
Cc1ccnc2c1NC(=O)c1cccnc1N2C1CC1 | RT-Y181C | MT-4 | IIIB-R (RT-Y181C) | >235 µM
COc1ccc(-c2oc3c4c(cc(O)c3c(=O)c2CC=C(C)C)OC(C)(C)C=C4)c(OC)c1 |  | MT-4 | IIIB | >500 µg/mL
CCCCCCCCCCCCCCCCCC(=O)O[C@H]1C(C)=C[C@]23C(=O)[C@@H](C=C(CO)[C@@H](O)[C@]12O)[C@@H]1C(C)(C)[C@]1(OC(=O)CCCCCCCCCCC)C[C@H]3C |  | MT-4 |  | 0.34 µg/mL
CCOCn1c(Cc2cc(C)cc(C)c2)c(CC)c(=O)[nH]c1=O |  | MOLT-4 | IIIB | 0.0012 µM
O=C1CN=C(c2ccc[nH]2)c2cc(Cl)ccc2N1 |  | CEM | IIIB | 0.25 µg/mL
Cc1cn([C@H]2C[C@H](N=[N+]=[N-])[C@@H](COC(=O)CCC(=O)OC[C@H]3O[C@@H]4O[C@H]5[C@H](O)[C@@H](O)[C@@H](O[C@H]6[C@H](O)[C@@H](O)[C@@H](O[C@H]7[C@H](O)[C@@H](O)[C@@H](O[C@H]8[C@H](O)[C@@H](O)[C@@H](O[C@H]9[C@H](O)[C@@H](O)[C@@H](O[C@H]%10[C@H](O)[C@@H](O)[C@@H](O[C@H]3[C@H](O)[C@H]4O)O[C@@H]%10CO)O[C@@H]9CO)O[C@@H]8CO)O[C@@H]7CO)O[C@@H]6CO)O[C@@H]5CO)O2)c(=O)[nH]c1=O |  | MT-4 | IIIB | 0.0452 µg/mL
c1cc(CN2CCCNCCCNCCNCCC2)ccc1CN1CCCNCCCNCCNCCC1 |  | SupT1 + Sup-T1 | 168.10 | 0.04 µg/mL
O=C1Nc2ccc(Cl)cc2S(=O)(=O)c2cn(Cc3cccc4ccccc34)cc21 |  | MT-4 | IIIB | 22 µM
CCCCCCCCCCCC(=O)O[C@@]12C[C@@H](C)[C@]34C=C(C)[C@H](O)[C@@]3(O)[C@H](O)C(COC(=O)OC)=C[C@H](C4=O)[C@@H]1C2(C)C |  | MT-4 |  | 0.025 µg/mL
CC1(C)C=Cc2c(cc(O)c3c(=O)c4c(oc23)-c2ccc(O)cc2OC(C(C)(C)O)C4)O1 |  | MT-4 | IIIB | >20 µg/mL
CC(C)(C)NC(=O)[C@@H]1C[C@@H]2CCCC[C@@H]2CN1C[C@@H](O)[C@H](Cc1ccccc1)NC(=O)[C@H](CC(N)=O)NC(=O)c1ccc2ccccc2n1 |  | CEM + CEM-SS | LAI | 0.009 µM
Cc1cn([C@H]2C[C@H](N=[N+]=[N-])[C@@H](COC(=O)NCCSC(=O)OC[C@H]3O[C@@H](n4cc(C)c(=O)[nH]c4=O)C[C@@H]3N=[N+]=[N-])O2)c(=O)[nH]c1=O |  | MT-4 | WT | 5 µM
CCOCn1c(Sc2cc(C)cc(C)c2)c(CC)c(=O)[nH]c1=S |  | MT-4 | RF | 0.0026 µM
CCCN(C)c1nc(N)nc2c1[nH]c[n+]2C[C@@H](C)OCP(=O)(O)O |  | MT-4 | IIIB | 57.4 ± 17.8 µg/mL
c1ccc(-c2cc(CN3CCCNCCNCCCNCC3)cc(CN3CCCNCCNCCCNCC3)c2)cc1 |  | SupT1 + Sup-T1 | 168.10 | 0.12 µg/mL
CCOC(=O)c1c[nH]cc1S(=O)(=O)c1ccccc1 |  | MT-4 | IIIB | >200 µM
c1cc(CN2CCCNCCCNCCNCCC2)cc(CN2CCCNCCCNCCNCCC2)c1 |  | MT-4 | NL4-3 | 0.2 µg/mL
CC(=O)Oc1ccc(/C=C/C(=O)O[C@@H](C(=O)O)[C@@H](OC(=O)/C=C/c2ccc(OC(C)=O)c(OC(C)=O)c2)C(=O)O)cc1OC(C)=O |  | MT-4 | IIIB | 4 µM
O=c1cc(-c2ccc(O)cc2O)oc2cc(O)cc(O)c12 |  | MT-4 | IIIB | >20 µg/mL
C=CCNc1ncnc2c1ncn2CCOCP(=O)(O)O |  | CEM | IIIB | 8 µg/mL
c1cc(CCN2CCCNCCNCCCNCC2)ccc1CCN1CCCNCCNCCCNCC1 |  | SupT1 + Sup-T1 | 168.10 | 1.2 µg/mL
CC(C)(C)NC(=O)[C@@H]1CC2CCCCC2CN1C[C@@H](OC(=O)CCCCNC(=O)O[C@H]1[C@@H](C2COC(C)(C)O2)OC2OC(C)(C)O[C@H]21)[C@H](Cc1ccccc1)NC(=O)[C@H](CC(N)=O)NC(=O)c1ccc2ccccc2n1.O=C(O)C(F)(F)F.O=C(O)C(F)(F)F.O=C(O)C(F)(F)F.O=C(O)C(F)(F)F |  | MT-4 | IIIB | 7.1 µM
CCc1c(Sc2cc(C)cc(C)c2)n(COCc2ccccc2)c(=O)[nH]c1=O |  | MT-4 | IIIB | 0.0024 µM
CC(C)(O)CCc1c(-c2ccc(O)cc2O)oc2c3c(cc(O)c2c1=O)OC(C)(C)C=C3 |  | MT-4 | IIIB | >100 µg/mL
CCN(CC)C(=O)Oc1nsnc1-c1c(Cl)cccc1Cl |  | MT-4 | IIIB | 0.25 µM
CC(C)=CCc1c(O)c(CC=C(C)C)c2c(c1O)-c1cc(O)c(O)cc1CC2 |  | MT-4 | IIIB | >4 µg/mL
CCCCN(CC)C(=O)Oc1nsnc1-c1c(Cl)cccc1Cl |  | MT-4 | IIIB | 0.33 µM
CCOC(=O)c1c[nH]cc1S(=O)(=O)c1cc(Cl)ccc1N | RT-Y181C | MT-4 | Clinical isolate | ≥30 µM
CCNc1nc(N(C)C)nc2c1ncn2C[C@@H](C)OCP(=O)(O)O |  | CEM | IIIB | >4 µg/mL
Clc1cc(CN2CCCNCCNCCCNCC2)c(Cl)cc1CN1CCCNCCNCCCNCC1 |  | MT-4 | AOM | 0.086 µg/mL
CCCCN(C)C(=O)Oc1nsnc1-c1c(Cl)cccc1Cl |  | MT-4 | IIIB | 0.02 µM
Fc1cccc(F)c1[C@H]1SCc2nc3ccccc3n21 |  | MT-4 | RF | 0.1 µg/mL
CN(C)C(=O)Oc1nsnc1-c1ccc(Cl)cc1Cl |  | MT-4 | IIIB | 8.3 µM
O=c1[nH]cnc2c1ncn2[C@H]1CC[C@@H](CO)O1 |  | MT-4 | HXB2 | 2.24 µM
CC1(C)CCc2c(cc(O)c3c(=O)c4c(oc23)-c2ccc(O)cc2OC(C(C)(C)O)C4)O1 |  | MT-4 | IIIB | >40 µg/mL
Cc1cn([C@H]2C[C@H](N=[N+]=[N-])[C@@H](COC(=O)CCC(=O)OC[C@H]3O[C@@H]4O[C@H]5[C@H](O)[C@@H](O)[C@@H](O[C@H]6[C@H](O)[C@@H](O)[C@@H](O[C@H]7[C@H](O)[C@@H](O)[C@@H](O[C@H]8[C@H](O)[C@@H](O)[C@@H](O[C@H]9[C@H](O)[C@@H](O)[C@@H](O[C@H]3[C@H](O)[C@H]4O)O[C@@H]9CO)O[C@@H]8CO)O[C@@H]7CO)O[C@@H]6CO)O[C@@H]5CO)O2)c(=O)[nH]c1=O |  | MT-4 | IIIB | 0.004 µg/mL

The first 6 rows once more:

compound | mutations | cell line | strain or isolate | value
Cc1cn([C@H]2C[C@H](N=[N+]=[N-])[C@@H](CO)O2)c(=O)[nH]c1=O |  | MT-4 | WT | 0.07 µM
CCOCn1c(Sc2cc(C)cc(C)c2)c(CC)c(=O)[nH]c1=O |  | MOLT-4 | IIIB | 0.0034 µM
COCOc1cc(O)c(C(=O)/C=C/c2ccc(OCOC)c(OCOC)c2)c(OCOC)c1 |  | MT-4 | IIIB | >20 µg/mL
Nc1ncnc2c1ncn2CCOCP(=O)(O)O |  | MT-4 | IIIB | >4 µg/mL
Cc1cn([C@H]2C=C[C@@H](CO)O2)c(=O)[nH]c1=O | RT-K103R V179D P225H | MT-4 | EFV-resistant (RT K103R V179D P225H) | 0.4 µM
CC1=C[C@]23C(=O)[C@@H](C=C(COC(=O)C(C)(C)C)[C@@H](O)[C@]2(O)[C@H]1O)[C@H]1[C@@H](C[C@H]3C)C1(C)C |  | MT-4 |  | 0.013 µg/mL